## Deep mutational scan of the Zika virus protease

Source: Ni et al. 2025 (doi:10.1038/s41467-025-63602-z), supplementary data.

The scanned region of Zika virus MR766 is shown below (positions 1-308): NS2B is 2-131, NS3 begins at position 132.
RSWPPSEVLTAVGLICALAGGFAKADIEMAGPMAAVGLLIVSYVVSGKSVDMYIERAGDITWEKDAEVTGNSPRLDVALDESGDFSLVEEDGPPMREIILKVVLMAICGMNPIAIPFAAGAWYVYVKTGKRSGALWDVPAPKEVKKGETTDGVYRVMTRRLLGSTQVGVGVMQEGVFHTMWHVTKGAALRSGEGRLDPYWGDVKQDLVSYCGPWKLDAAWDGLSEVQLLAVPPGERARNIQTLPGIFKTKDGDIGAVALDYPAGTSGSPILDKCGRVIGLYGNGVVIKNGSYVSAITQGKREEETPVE

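Mutant virus pools were grown in human Huh-7.5 cells. The effect is the change in frequency of a mutant, normalised to wild type, as a mean of three replicate libraries (two for positions 207-308).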

Scale: log2 effect, wild type = 0; the lower, the more harmful to the virus.
Substitutions are written as wild-type residue, site number, new residue.

C16Q read -6.26.
A19K read -6.75.
G20P read -7.12.
K24N read -0.73.
K24V read -6.45.
I27K read -3.90.
M29E read -2.80.
G31C read -5.84.
G31P read -4.83.
P32Q read -6.57.
Y43* read -7.58.
E55I read -2.57.
W62L read -5.11.
E63N read -3.90.
D65V read -6.87.
A78L read 0.63.
L79N read -6.31.
D84R read -7.29.
V138S read -6.32.
E143H read -1.50.
G152D read -5.59.
Y154H read -5.25.
Y154Q read -5.17.
V156S read -6.96.
V169Q read -6.06.
V171* read -6.67.
V183S read -6.38.
L189D read -4.10.
W200H read -6.12.
D202R read -6.81.
L216C read -1.21.
D217Y read -6.55.
A219Q read 1.55.
G222I read -5.53.
S224M read -5.63.
L228M read -2.81.
V231I read 0.72.
P233W read -5.34.
P233Y read -5.53.
A237E read -3.57.
K248P read -7.00.
K250L read -6.68.
D251* read -7.38.
A258M read -5.13.
A263F read -5.96.
A263P read -0.22.
G267R read -5.32.
S268G read -4.22.
L271P read -3.39.
G282* read -5.96.
G284Q read -5.28.
K288N read -5.88.
G290P read -6.06.
K300I read -2.91.
K300M read -6.14.
K300P read -5.87.
R301H read -4.57.

Stop codons (*) centre on -7 and mark the level of dead virus.
Six mutants with high scores were retested singly and none clearly outgrew wild type, so positive values are not proof of better growth.
Position 1 still belongs to NS2A. In the paper, -1 or higher counts as tolerated.
The region was split into three libraries (1-103, 104-206, 207-308).